This series in a line: Cytotoxicity (CC50) in the West Nile Fever virus assay.

On to [BHAlys][Lys]16[CONH-Ph-3,5-(SO3Na)2]32, for which the “CC50 NR” value (NR readout) was greater than 100 µg/mL. Further, where the note is “VIS readout”, the “CC50 VIS” value was greater than 100 µg/mL.

These data come from US20210236539A1, “METHOD OF PROPHYLAXIS OF ZIKA VIRUS INFECTION” (priority 2016, published 2021).
